Laboratory results: patent US20250382354A1 (INSTITUTE FOR RESEARCH IN BIOMEDICINE IRB, published 2025)

Assays:
SARS-CoV-2 SD1-RBD Gamma = biological target: T1, SARS-CoV-2 SD1-RBD Gamma (SARS-CoV-2 Gamma); experiment: protein ELISA
T1 construct: domain: SD1-RBD

SARS-CoV-2 SD1-RBD Delta = biological target: T2, SARS-CoV-2 SD1-RBD Delta (SARS-CoV-2 Delta); experiment: protein ELISA
T2 construct: domain: SD1-RBD

[1] = biological target: T3, SARS-CoV-2 SD1-RBD Omicron BA.2 (SARS-CoV-2 Omicron BA.2); experiment: protein ELISA
T3 construct: domain: SD1-RBD

SARS-CoV-2 SD1-RBD Beta = biological target: T4, SARS-CoV-2 SD1-RBD Beta (SARS-CoV-2 Beta); experiment: protein ELISA
T4 construct: domain: SD1-RBD

[2] = biological target: T5, SARS-CoV-2 S ectodomain, Omicron BA.4/BA.5 (SARS-CoV-2 Omicron BA.4/BA.5); experiment: ELISA on coated S
T5 construct: extracellular domain

[3] = biological target: T6, SARS-CoV-2 S ectodomain, Omicron BA.1 (SARS-CoV-2 Omicron BA.1); experiment: ELISA on coated S
T6 construct: extracellular domain

[4] = biological target: T7, SARS-CoV-2 S ectodomain, Delta (SARS-CoV-2 Delta); experiment: ELISA on coated S
T7 construct: extracellular domain

| Binder | EC50 (SARS-CoV-2 SD1-RBD Gamma) [µg/mL] | EC50 (SARS-CoV-2 SD1-RBD Delta) [µg/mL] | EC50 [1] [µg/mL] | EC50 (SARS-CoV-2 SD1-RBD Beta) [µg/mL] | EC50 [2] [µg/mL] | EC50 [3] [µg/mL] | EC50 [4] [µg/mL] |
| --- | --- | --- | --- | --- | --- | --- | --- |
| rbd.112 (antibody, V domains shown) VH: EVQLVQSGAEVKKSGESLKISCKSSGYSFTTYWIAWVRQMPGKGLEWMGIIYPGHSDARYSPSFQGHVTISADKSISTAYLQWRSLKASDTAIYYCARLSYYDVSNFYYYDSYWFDSWGLGTLVTVSS VL: QSVLTQPPSVSGAPGQRVTISCTGSSSNLGAGYDVHWYQQLPGTAPKLLIYANSNRPSGVPDRFSGSKSGTSASLAMTGLQAEDEADYYCQSYDSSLGGYVFGFGTKVTVL | 0.0221 | 0.0364 | 0.0301 | 0.0258 |  |  |  |
| rbd.117 (antibody, V domains shown) VH: EVQLVESGGGLVQPGGSLRLSCAASGFTFSRYAMSWVRQAPGKGLEWVSGLSGSGDSTYYADSVKGRFTISRDNSKKTLNLQMNSLRPEDTAVYYCAKGSRFGIDYFDCWGQGTLVTVSS VL: DIQMTQSPSTLSASVGDRVTITCRASQSISSWLAWYQLKPGKAPKLLIYDASSLESGVPSRFSGSGSGTEFTLTISSLQPDDFATYYCQQYNTYPFSFGPGTKVDIK | 0.0252 | 0.0407 | 0.0272 | 0.0256 |  |  |  |
| rbd.123 (antibody, V domains shown) VH: QVQLVQSGAEVKKPGSSVKVSCKASGGAFRMYAISWVRQAPGQGLEWMGGIIPISGTATYTQNFQGRVTITVDRSTSTAYMELSSLRSDDTALYYCARGPRTGYDYFDFWGQGTLVTVSS VL: DIQMTQSPSTLSASVGDRVTITCRASQSISSWLAWYQQKPGKAPNLLIYDASSLESGVPSRFSGSGSGTEFTLTISSLQPDDFATYYCQQYKSYPYTFGQGTKLEIK | 0.00852 | 0.0106 | 0.00877 | 0.0094 |  |  |  |
| rbd.141 (antibody, V domains shown) VH: EVQLVESGGGVVQPGRSLRLSCAASGFTFSSYGMHWVRQAPGKGLEWVAVISYDGKIKYYADSVEGRFTISRDNSKNALYLQMNSLRAEDTAVYYCAKYGIVTSFGVVPPYDMDVWGQGTTVTVSS VL: DVVMTQSPLSLPVTLGQPASISCRSSQSLVYSDGNTFLNWFQQRPGQSPRRLIYKVSDRDSGVPDRFSGSGSGTDFTLKISRVEAEDVGVYYCMQGTNWPPTFGQGTKVEIK | 0.0116 | 0.0163 | 0.0169 | 0.0171 |  |  |  |
| rbd.143 (antibody, V domains shown) VH: EVQLVESGGGLVQPGGSLRLSCSASGFTFRRYAMHWVRQAPGKGLQHVSAISSDGDNTHYADSVKGRFTISRDNFKNTLHLQMSSLRPEDTAVYYCVKDPFSNFHYFDCWGQGILVTVSS VL: not shown | 0.0196 | 0.0291 | 0.0249 | 0.0228 |  |  |  |
| rbd.106 (antibody, V domains shown) VH: EVQLVQSGAEVKKPGESLKISCKGSGYSFYNHWIAWVRQMPGKGLEWMGIIYPYDSDTRYSPSFQGQVTISADKSITTAYLQWSSLKASDTAIYYCARRSDYGEFGGHSDYWGQGTLVTVSS VL: QSVLTQPPSASGTPGQRVSISCSGSSSNIGSNSVNWYQQFPGTAPKLLMFSSYQRPSGVPDRFSGSKSGTSASLAISGLQSEDEADYYCAAWDDSLNGVVFGGGTKLTVL | 0.0213 | 0.031 | 0.0236 | 0.0258 |  |  |  |
| hr2.086 (antibody, V domains shown) VH: EVQLLESGGGLVQPGGYLRLSCAASGFTFSSYAMSWVRQAPGKGLEWVSVISGGGGSAYYADSVKGRFTISRDNSKNTLYLQMNSLRAEDTAVYYCAKIGMILVFDYWGQGTLVTVSS VL: EIVLTQSPGTLSLSPGERATLSCRASQSVSNNYLAWYQQKPGQAPRLLISGASSRATGIPDRFSGSGSGTDFTLTISRLEPEDFAVYYCQQYGSSPPTFGQGTKVEIK |  |  |  |  | 0.0343 | 0.0342 | 0.0468 |
| rbd.113 (antibody, V domains shown) VH: EVQLVQSGAAVKKPGESLKISCKGSGYSFTNYWIGWVRQMPGKGLELMGIIYVGDSDTRYSPSFQGQVTISADKSITTAYLQWSSLKASDSAIYYCARQRCGGDCPFDLWGRGTLVTVSS VL: DIQMTQSPSTLSASVGDRVTITCRASQSINRWLAWYQQKPGKAPELLIYDASDLESGVPSRFSGSGSGTEFTLTISSLQPDDFATYYCQQYNSYWTFGQGTKVEIK | 0.0183 | 0.0279 | 0.0198 | 0.0217 |  |  |  |
| fp.010 (antibody, V domains shown) VH: EVQLLESGGGLVQPGGSLRLSCAASGFTFSTYAMNWVRQAPGKGLEWVSAISSSGLSTQYADSVRGRFTISRDTSKNTLYLHMNSLRAGDTAVYYCAKVEYSGYDPRGPFDSWGQGTLVTVSS VL: DIQMTQSPSTLSASVGDRVTITCRASQSISGWLAWYQQKPGRAPKLLIYKASSLERGVPSRFSGSGSGTEFTLTISSLQPDDFATYYCQEYSSYPLCTFGQGTKLEIK |  |  |  |  |  |  | 5.04 |
| hr2.020 (antibody, V domains shown) VH: EVQLVQSGAEVKKPGESLKISCKGSGYRFASHWIGWVRQMPGKGLQWMGIIYPGDSDTKYSPSFQGQVTISADKSINTVYLHWTSLKASDTAVYYCARRPPHLDGGDSPIRFDHWGQGTLVTVSS VL: QSVLTQPPSASGTPGQRVTISCSGSRSNIGSNDVYWYQQFPGTAPKLLIYRNNQRPSGVPDRFSGSKSGTSASLAISGLRSEDEADYYCATWDDRLTGVFGGGTKLTVV |  |  |  |  | 0.103 | 0.113 | 0.123 |
| fp.002 (antibody, V domains shown) VH: VQLVESGGGVVQPGTSLRLSCAGSGFNFDNYAIHWVRQAPGQGLEWVAIISYEARNKKYAGSVTGRFSISRDNSKSMVYLQMDSLRGEDTAVYYCARDLFLSDYDRSGYDPTRGGFDLWGQGTLVTVSS VL: EIVMTQSPATLSVSPGERATLSCRASQSVSSSLAWYQHKLGQAPRLLIYGASTRATGIPGRFSGSGSGTEFTLTISSLQSEDVAIYYCQQYGDWPLVTFGGGTKVEIK |  |  |  |  | 0.35 | 0.338 | 0.367 |
| fp.003 (antibody, V domains shown) VH: VQLVESGGGVVQPGTSLRLSCTASGFSFSNYAMHWVRQAPGKGLEWVAIISFDTRNKEFADSVKGRFSISRDNSKNSLNLQMNSLRPEDTGVYYCARDLFLSDYDSRGYEPSRGGFDYWGQGTLVTVSS VL: EIVMTQSPATLSVSPGERATLSCRASQSVSSSLAWYQQKLGQPPRLLIYGASTRATGIPARFSGSGSGTEFTLTISSLKSEDSAVYYCQQYNDWPLLSFGGGTKVEIK |  |  |  |  | 0.605 | 2.08 | 0.265 |
| hr2.090 (antibody, V domains shown) VH: EVQLLESGGGLVQPGGSLRLSCAASGVTFSRYAMSWVRQAPGKGLEWVSTISGGGGGTYYADSVKGRFTISRDNSKNTLYLQMNSLRAEDTAVYYCATLLTVPGPYYFEYWGQGTLVTVSS VL: EIVLTQSPGTLSLSPGERATLSCRASQSVSSSYLAWYQQKPGQAPRLLIYGASSRATGIPDRFSGSGSGTDFTLTISRLESEDFAVYYCQHSRFTFGPGTRVDIK |  |  |  |  | 0.0713 | 0.0571 | 0.0445 |
| hr2.094 (antibody, V domains shown) VH: EVQLVESGGGLVQPGGSLRLSCAASGFTFSTFWMTWVRQAPGKGLEWVANIKSDGSEKYYVDSVKGRFTISRDNAKNSLYLQMNSLRAEDTAVYYCATWFGLHWGQGTLVTVSS VL: DIVMTQSPDSLAVSLGERASINCKSSQTVLYSSNNKNYLAWYQQKPGQPPKLLIHWASTRDSGVPDRFSGSGSGTDFTLTISSLQAEDVAVYYCQQYHRIPWTFGRGTKVEIK |  |  |  |  | 0.143 | 0.0996 | 0.0732 |
| hr2.021 (antibody, V domains shown) VH: QVQLVQSGAEVKKPGASVKVSCKASEAIFSGSYLHWVRQAPGQGLEWMGIITPSGDKTFYAQRFQGRLTMTRDTSTNTLHMHLSGLNSEDTAMYYCARQADKGGWDYWGQGTLVTVSS VL: EIVLTQSPGTLSLSPGERATLSCRASQSVTSNYVAWYQQKPGQAPRLLIYGASTRATGIPDRFSGGGSGTDFTLTITRLEPEDFAVYYCQQYGSSPPTFTFGPGTKVDIK |  |  |  |  | 0.0929 | 0.0912 | 0.116 |
| hr2.024 (antibody, V domains shown) VH: QVQLVQSGAEVKKPGASVKVSCKASEDIFTDSYLHWVRQAPGQGLEWMGIITPSGDKTFYAQQFQGRLTMTRDPSTNTLYMFLSGLRSDDTAMYFCARQAEKGGWDYWGHGTLVTVSS VL: EIVLTQSPGTLSLSPGQRATLSCRSSQTITSNYLAWYQQRPGQAPRLLIYGASIRATGIPDRFSGSGSGTDFTLTISRLEPEDFAVYYCQQYGSSPPTFIFGPGTKVDIK |  |  |  |  | 0.09 | 0.0544 | 0.08 |
| hr2.023 (antibody, V domains shown) VH: QVQLVQSGAEVKKPGASVKVSCRASENIFSDSYLHWVRQAPGQGLEWMGIITPSGDKTFYAQQFQGRLTMTRDTPTNTLHMDLRGLTSADTAIYYCARQATKGGWDYWGQGTLVTVSS VL: EIVLTQSPGTLSLSPGESATLSCRASQSVTRNYLAWYQQQPGQAPRLLIYGASNRATGVPDRFSGSGSGTDFTLTISRLEPEDFAVYYCQQYGSSPPTFIFGPGTKVDIK |  |  |  |  | 0.0393 | 0.036 | 0.0464 |
| rbd.110 (antibody, V domains shown) VH: EVQLVESGGGVVQPGRSLRLSCVASGFTFSRYGMHWVRQAPGKGLEWVATILYDGSDQYYAESVKGRFTISRDNSKNTLYLQMNSLREADTAVYYCAKTSYGYAYNFRLYFDYWGQGTLVTVSS VL: SYELTQPPSVSVAPGKTATITCGGNNIGSAGVHWYQQRPGQAPVLVVYDDSDRPSGIPERFSGSTSGNTATLTISRVEAGDEADYYCQVWDSNSAPVIFGGGTKLTVL | 0.0175 | 0.0269 | 0.0193 | 0.0223 |  |  |  |
